Anti-infective test results gathered from many reports (values: NIAID ChemDB through PubChem).

Common to all: tests in culture; species: Candida albicans; endpoint: zone

Neighbouring rows are from separate reports. Blank or dashed fields: not listed here. Zones are inhibition diameters on agar.

| smiles | strain or isolate | read by | tested at | value |
|---|---|---|---|---|
| O=C(COc1ccc(-c2nc(-c3ccccc3)c(-c3ccccc3)s2)cc1)CN1CCCCC1 | ATCC 10231 | agar diffusion / agar | 100 µg/mL | 19 mm |
| O=C1C(Cl)C(c2ccc(F)cc2)N1Nc1nc2ccccc2n2nnnc12 | ATCC 2091 | agar diffusion | 50 µg/mL | 7 mm |
| CS(=O)(=O)c1nc(N)c(C#N)c(-c2cccc([N+](=O)[O-])c2)n1 | MTCC 227 | agar diffusion | 50 µg/mL | 17 mm |
| CC(=O)N1N=C(C23CC4CC(CC(C4)C2)C3)OC1c1cc(-c2ccc(C)cc2)on1 | IFO 0583 | agar diffusion / agar | 200 µg | ≤10 mm |
| CSC1=NC(c2ccc(Cl)cc2)C(C#N)=C(N)N1 | MTCC 227 | agar diffusion | 100 µg/mL | 20 mm |
| COc1cc2c(cc1-c1cc(-c3ccc([N+](=O)[O-])cc3)nc(N)n1)CCC(C)(C)O2 | - | agar diffusion | 100 µg/mL | 21 mm |
| Cc1c(Br)cccc1-c1nnc(CN2CCC(n3nc4ccccc4n3)CC2)o1 | - | - | 600 µg/mL | 4.18 mm |
| O=C(N/N=C/c1cc(-c2ccc(Cl)cc2)on1)C12CC3CC(CC(C3)C1)C2 | IFO 0583 | agar diffusion / agar | 200 µg | ≤10 mm |
| Cc1nc2ccccc2n(CC(=O)NN2C(=O)CSC2c2ccc(O)cc2)c1=O | - | - | 50 µg/mL | 13 mm |
| CC1(C)CC(=O)c2cc(C3CC(c4ccc(Br)cc4)=NN3C(N)=S)[nH]c2C1 | ATCC 2091 | - | 1000 µg/mL | 23 mm |
| CC1=C(Cl)C(O)=CC(=O)C12Oc1cc(O)c(Cl)c(C)c1C2=O | MTCC 227 | agar diffusion | 25 µg/mL | 23 mm |
| CC(=O)N1N=C(C23CC4CC(CC(C4)C2)C3)OC1c1cc(-c2ccc(Cl)cc2)on1 | IFO 0583 | agar diffusion / agar | 200 µg | ≤10 mm |
| NC(=S)c1ccc(OC(=O)CNc2ccc(Cl)cc2)cc1 | ATCC 10231 | agar diffusion / agar | 100 µg/mL | 20 mm |
| CC1/C(=N\O)C(=O)NCCCOc2c(O)cc(c(Br)c2Br)C/C2=N\O[C@@H]3[C@H](Br)[C@@]4(C=C[C@@]3(O)C/C(=N\O)C(=O)NC[C@@H](O)[C@@H](O)[C@H](O)CNC2=O)Oc2cc1cc(Br)c2O4 | - | agar diffusion | 10 µg/disc | 6.5 mm |
| O=C1C(Cl)C(c2ccc(Cl)cc2)N1Nc1nc2ccccc2n2nnnc12 | ATCC 2091 | agar diffusion | 100 µg/mL | 10 mm |
| CSC1=NC(c2cccc3cc4ccccc4cc23)C(C#N)=C(N)N1 | MTCC 227 | agar diffusion | 100 µg/mL | 19 mm |
| Cc1nc2ccccc2n(CC(=O)NN2C(=O)CSC2c2ccc(C(F)(F)F)cc2)c1=O | - | - | 100 µg/mL | 24 mm |
| CC1(C)C=C2C3CCC4[C@@]5(C)CC[C@H](OC(=O)/C=C\c6ccc(O)cc6)C(C)(C)C5CC[C@@]4(C)[C@]3(C)CC[C@@]2(C)CC1 | UPCC 2168 | agar diffusion | 30 mg/disc | 11 mm |
| Clc1ccccc1C(c1ccccc1)(c1ccccc1)n1ccnc1 | - | agar | 25 µg/mL | 35 mm |
| Cc1ccc(C(C)C)c(O)c1 | AI | agar diffusion | 100 µg/mL | 5 mm |
| C/C=C/C1=CC2=CC(=O)[C@](C)(OC(=O)c3c(OC)cc(O)c(O)c3C)C(=O)C2=CO1 | ATCC 64548 | agar diffusion | 20 µg/disc | 0 mm |
| Cc1nc2ccccc2n(CC(=O)NN2C(=O)CSC2c2ccc(Cl)cc2)c1=O | - | - | 100 µg/mL | 21 mm |
| Cc1ccc(-c2c(NCS(=O)(=O)c3ccc(C)cc3)oc3[nH]c(=O)[nH]c(=O)c23)cc1 | - | agar diffusion / agar | 100 µg/mL | 0 mm |
| O=C(Cc1ccc(-c2nc(-c3ccccc3)c(-c3ccccc3)s2)cc1)CN1CCCC1 | ATCC 10231 | agar diffusion / agar | 100 µg/mL | 22 mm |
| c1ccc(-c2nnc(CN3CCC(n4nc5ccccc5n4)CC3)o2)cc1 | - | - | 600 µg/mL | 6.05 mm |
| C[C@H]1[C@H](O)[C@@H](C)/C=C/C=C/C=C/C=C/C=C/C=C/C=C/[C@H](O[C@@H]2O[C@H](C)[C@@H](O)[C@H](N)[C@@H]2O)C[C@@H]2O[C@](O)(C[C@@H](O)C[C@@H](O)CC[C@H](O)[C@@H](O)C[C@@H](O)CC(=O)O[C@H]1C)C[C@H](O)[C@H]2C(=O)O | Ca1 | agar diffusion | 100 µg/disc | 25 mm |
| CC1(C)C/C(=N\NC(=O)c2ccccc2)c2cc(/C=N/Nc3nnc4c(n3)Nc3ccccc3N4)[nH]c2C1 | ATCC 2091 | - | 1000 µg/mL | 22 mm |
| CC(C)(C)c1cc(-c2nnc(CN3CCC(n4nc5ccccc5n4)CC3)o2)cc(C(C)(C)C)c1 | - | - | 900 µg/mL | 15.04 mm |
| CC1(C)C=C2[C@H]3CC[C@@H]4[C@@]5(C)CC[C@H](O)C(C)(C)[C@@H]5CC[C@@]4(C)[C@]3(C)CC[C@@]2(C)CC1 | UPCC 2168 | agar diffusion | 30 mg/disc | 12 mm |
| COc1cccc(-c2nnc(CN3CCC(n4nc5ccccc5n4)CC3)o2)c1 | - | - | 300 µg/mL | 2.25 mm |
| O=C(Cc1ccc(-c2nc(-c3ccccc3)c(-c3ccccc3)s2)cc1)CN1CCOCC1 | ATCC 10231 | agar diffusion / agar | 100 µg/mL | 19 mm |
| CC1(C)CC(=O)c2cc(C3CC(c4ccc(Br)cc4)=NN3)[nH]c2C1 | ATCC 2091 | - | 1000 µg/mL | 22 mm |
| Cc1nc2ccccc2n(CC(=O)NN2C(=O)CSC2c2ccccc2F)c1=O | - | - | 50 µg/mL | 8 mm |
| NNC(=O)Cc1nnc2nnc3c(n12)Nc1ccccc1C3 | ATCC 2091 | - | 1000 µg/mL | 23 mm |
| Cc1ccc(S(=O)(=O)CNc2oc3[nH]c(=O)[nH]c(=O)c3c2-c2ccc([N+](=O)[O-])cc2)cc1 | - | agar diffusion / agar | 100 µg/mL | 3 mm |
| COc1ccc(C2N=C(SC)NC(N)=C2C#N)cc1 | MTCC 227 | agar diffusion | 100 µg/mL | 20 mm |
| CC1(C)CC(=O)c2cc(C3CC(c4ccc(Cl)cc4)=NN3)[nH]c2C1 | ATCC 2091 | - | 1000 µg/mL | 24 mm |
| CSC1=NC(c2ccccc2Cl)C(C#N)=C(N)N1 | MTCC 227 | agar diffusion | 50 µg/mL | 17 mm |
| COc1ccc(C2=CC(c3nnc4c(n3)Nc3ccccc3N4)C(c3cc4c([nH]3)CC(C)(C)CC4=O)=C2)cc1 | ATCC 2091 | - | 1000 µg/mL | 23 mm |
| CSC1=NC(c2ccc(O)cc2)C(C#N)=C(N)N1 | MTCC 227 | agar diffusion | 50 µg/mL | 18 mm |
| O=C1CSC(c2ccccc2)N1Nc1nc2ccccc2n2nnnc12 | ATCC 2091 | agar diffusion | 50 µg/mL | 7 mm |
| Cc1nc2ccccc2n(CC(=O)NN2C(=O)CSC2c2ccccc2O)c1=O | - | - | 50 µg/mL | 9 mm |
| Cc1ccc(S(=O)(=O)CNc2oc3[nH]c(=O)[nH]c(=O)c3c2-c2ccc(O)cc2)cc1 | - | agar diffusion / agar | 100 µg/mL | 2 mm |
| CS(=O)(=O)C1=NC(c2cccc3cc4ccccc4cc23)C(C#N)=C(N)N1 | MTCC 227 | agar diffusion | 25 µg/mL | 17 mm |
| COc1ccc(C2C(Cl)C(=O)N2Nc2nc3ccccc3n3nnnc23)cc1 | ATCC 2091 | agar diffusion | 100 µg/mL | 11 mm |
| COc1cc2c(cc1-c1cc(-c3ccc(F)cc3)nc(N)n1)CCC(C)(C)O2 | - | agar diffusion | 100 µg/mL | 18 mm |
| CSC1=NC(c2cccc([N+](=O)[O-])c2)C(C#N)=C(N)N1 | MTCC 227 | agar diffusion | 50 µg/mL | 17 mm |
| COc1cc2c(cc1-c1cc(-c3ccc(C#N)cc3)nc(N)n1)CCC(C)(C)O2 | - | agar diffusion | 100 µg/mL | 15 mm |
| COC1=CC(=O)C[C@@H](C)[C@]12Oc1c(Cl)c(OC)cc(OC)c1C2=O | - | - | 6 µg/mL | 20 mm |

The first 4 rows once more:

smiles,strain or isolate,read by,tested at,value
O=C(COc1ccc(-c2nc(-c3ccccc3)c(-c3ccccc3)s2)cc1)CN1CCCCC1,ATCC 10231,agar diffusion / agar,100 µg/mL,19 mm
O=C1C(Cl)C(c2ccc(F)cc2)N1Nc1nc2ccccc2n2nnnc12,ATCC 2091,agar diffusion,50 µg/mL,7 mm
CS(=O)(=O)c1nc(N)c(C#N)c(-c2cccc([N+](=O)[O-])c2)n1,MTCC 227,agar diffusion,50 µg/mL,17 mm
CC(=O)N1N=C(C23CC4CC(CC(C4)C2)C3)OC1c1cc(-c2ccc(C)cc2)on1,IFO 0583,agar diffusion / agar,200 µg,≤10 mm